According to US7189506B1, “DNA binding compound-mediated molecular switch system” (Genelabs Technologies, Inc.):

Tested on: HNF3 (hepatocyte nuclear factor 3)
Assay: EMSA
Conditions: wild type oligomer; GL046732 had no effect; exact oligo not given, core site given; protein in an extract

“GACTGTTTGTTT (double strand) [HBV core proximal HNF3 wild-type site]”: binds.

Construct, isoform or probe ends are uncertain for at least one entry. Results from cells or extracts need not show a direct contact.
